Data taken from ChEMBL document CHEMBL4725263, “Discovery of potential dual-target prodrugs of HIV-1 reverse transcriptase and nucleocapsid protein 7” (Bioorg Med Chem Lett, 2020).

System: Human immunodeficiency virus 1
Assay: Fold resistance, ratio of EC50 for inhibition of reverse transcriptase K103N/Y181C double mutant/nucleocapsid protein 7 in HIV1 RES056 infected in human MT4 cells assessed as protection against virus-induced cytopathic effect incubated for 5 days by MTT assay to EC50 for reverse transcriptase/nucleocapsid protein 7 in wild type HIV1 3B infected in human MT4 cells assessed as protection against virus-induced cytopathic effect incubated for 5 days by MTT assay
Format: cell-based
Settings: time 5.0 day
Summary of the method: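 MT-4 cells infected with HIV-1 IIIB (wild type) or RES056 (K103N/Y181C RT double mutant); 5-day incubation; viability by MTT. EC50 is the concentration giving 50% protection against virus-induced cytotoxicity. CC50 is the concentration cutting viability of mock-infected cultures by 50%. SI is CC50/EC50. Fold resistance is EC50 mutant/EC50 wild type.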

Q: For `Cc1cn([C@H]2C[C@H](N=[N+]=[N-])[C@@H](CO)O2)c(=O)[nH]c1=O` [ZIDOVUDINE], which Ratio EC50 is on record?
A: Its Ratio EC50 is 109.
